Compound potency records, mixed from different reports. Data source: NIAID ChemDB in PubChem.

Shared fields: host cell toxicity; cells: MT-4; endpoint: CC50

CCn is the concentration with n% toxicity to the cells.

smiles,method,result
O=C1CSC(c2c(Cl)cccc2Cl)N1c1ccncc1,MTT,>10 µM
COP(=O)(C[C@H](NP(=O)(O)OC[C@@H]1C=C[C@H](n2cc(C)c(=O)[nH]c2=O)O1)C(=O)O)OC,MTT,>259 µM
COc1ccc(Oc2c(C(=O)O)oc3cc(O)cc(O)c3c2=O)c(OC)c1,-,>25 µg/mL
CC(C)CN(C[C@@H](O)[C@H](Cc1ccccc1)NC(=O)O[C@H]1CCOC1)S(=O)(=O)c1ccc(N)cc1,MTT,208 µM
Cc1cccnc1N1C(=O)CSC1c1c(F)cccc1F,MTT,319.3 µM
Oc1cc(O)c2c(c1)O[C@H](c1ccc(O)c(O)c1)[C@@H](O)C2,-,>100 µg/mL
O=C1CSC(c2c(F)cccc2F)N1c1ccccc1,MTT,429 µM
COC(=O)CNC(=O)COc1ccc2ccccc2c1,MTT,>100 µg/mL
Cc1cn([C@H]2C[C@H](N=[N+]=[N-])[C@@H](CO)O2)c(=O)[nH]c1=O,-,162 µg/mL
O=C(OC1OC2COC(=O)c3cc(O)c(O)c(O)c3-c3c(cc(O)c(O)c3O)C(=O)OC2C(OC(=O)c2cc(O)c(O)c(O)c2)C1OC(=O)c1cc(O)c(O)c(O)c1)c1cc(O)c(O)c(Oc2c(C(=O)O)cc(O)c(O)c2O)c1,-,32.6 µg/mL
O=c1ccn([C@H]2CC[C@@H](CO)O2)c(=O)[nH]1,-,>625 µM
Cc1cn([C@H]2C=C[C@@H](COP(=O)(O)N[C@@H](CC(=O)O)C(=O)O)O2)c(=O)[nH]c1=O,MTT,169.7 µM
COC(=O)c1ccc(CN2CCC(Nc3nc(Nc4c(C)cc(C)cc4C)c4[nH]cnc4n3)CC2)cc1,MTT,24.06 µM
CN[C@H]1CO[C@@H]2OCC[C@H](OC(=O)N[C@@H](Cc3cccc(OC)c3)[C@H](O)CN(CC(C)C)S(=O)(=O)c3ccc4nc(NC(C)C)sc4c3)[C@@H]21,MTT,33 µM
Cn1ncc2c1S(=O)(=O)N(CCc1ccccc1)C(=O)N2CCc1ccc(C#N)cc1,MTT,24.2 µM
Nc1nc2c(ncn2[C@@H]2OC[C@H](CCP(=O)(O)O)[C@H]2F)c(=O)[nH]1,MTT,98 µM
CN1CCN(C(=O)N2CCN(C(=O)N(C)C)CC2)CC1,MTT,>125 µg/mL
COc1c(-c2ccc(O)cc2)oc2cc(O)c(CC=C(C)C)c(O)c2c1=O,-,4.3 µg/mL
CN[C@H]1CO[C@@H]2OCC[C@H](OC(=O)N[C@@H](Cc3ccccc3)[C@H](O)CN(CC(C)C)S(=O)(=O)c3ccc4nc(NC5CC5)sc4c3)[C@@H]21,MTT,38 µM
CCCCOC(=O)N1CCN(C(=O)N(CC)CC)CC1,MTT,58.4 µg/mL
COC(=O)[C@H](Cc1ccc(O)cc1)NC(=O)COc1ccc2ccccc2c1,MTT,65 µg/mL
Cc1ccc(CCN2C(=O)N(CCc3ccc(C)cc3)S(=O)(=O)c3c2cnn3C)cc1,MTT,≥170.5 µM
CC1(C)OC2=C(CC3C=C(c4cc(O)cc(O)c4)OC3=C2)CC1O,-,12 µg/mL
O=C(O[C@@H]1[C@@H](OC(=O)c2cc(O)c(O)c(O)c2)[C@H](O)[C@@H](CO)O[C@H]1O)c1cc(O)c(O)c(O)c1,-,33.8 µg/mL
O=C1CSC(c2c(F)cccc2F)N1c1ccccn1,MTT,427 µM
Cc1[nH]c2ccccc2c1CC(=O)N[C@@H](Cc1ccccc1)C(=O)N(C)c1ccccc1,MTT,>100 µg/mL
Cc1cc(C#N)cc(C)c1Oc1nc(Nc2ccc(C#N)cc2)nc(N)c1Br,resazurin,>33 µM
CSCC[C@H](NC(=O)COc1ccc2ccccc2c1)C(=O)NN,MTT,>100 µg/mL
O=C(O[C@@H]1Cc2c(O)cc(O)cc2O[C@@H]1c1ccc(O)c(O)c1)c1cc(O)c(O)c(O)c1,-,36.2 µg/mL
Cc1cn([C@@H]2CC[C@H](CO)C2)c(=O)[nH]c1=O,MTT,>400 µg/mL
COC(=O)[C@H](CC(C)C)NC(=O)COc1ccc2ccccc2c1,MTT,>100 µg/mL
Cn1ncc2c1S(=O)(=O)N(CCc1ccccc1)C(=O)N2CCc1ccc(Cl)cc1Cl,MTT,>277.2 µM
Nc1ncnc2c1ncn2CCOCP(=O)(O)O,MTT,>10 µM
COC(=O)[C@@H](NC(=O)COc1ccc2ccccc2c1)C(C)C,MTT,42 µg/mL
COC(=O)c1cc(O)c(O)c(O)c1,-,9.5 µg/mL
NCCCCN(Cc1nc2ccccc2[nH]1)C1CCCc2cccnc21,-,27.5 µM
Cc1cn([C@H]2C[C@@H]3OC[C@H]2[C@@H]3CO)c(=O)[nH]c1=O,MTT,>400 µg/mL
C=CC(C)(C)c1c(O)cc(O)c2c(=O)c(O)c(-c3cc(O)c(O)c(CC=C(C)C)c3CC=C(C)C)oc12,-,20 µg/mL
COCCNc1cc(Oc2c(C)cc(/C=C/C#N)cc2C)nc(Nc2ccc(C#N)cc2)n1,MTT,3.05 µM
Cc1cn([C@H]2C=C[C@@H](COP(=O)(O)O)O2)c(=O)[nH]c1=O,MTT,187 µM
Cc1cc(C)c(Nc2nc(NC3CCN(Cc4ccc(C(N)=O)cc4)CC3)nc3nc[nH]c23)c(C)c1,MTT,23.85 µM
c1cc(CN2CCCNCCNCCCNCC2)ccc1CN1CCCNCCNCCCNCC1,-,>1 µg/mL
COc1c(O)ccc(/C=C2N=C(/C=C/c3cc(Br)c(O)c(Br)c3)N(C)C\2=O)c1OC,visual reading,4 µM
Cc1cn([C@@H]2C[C@H](CO)[C@@H](O)C2)c(=O)[nH]c1=O,MTT,0.07 µg/mL
C[C@H](NC(=O)COc1ccc2ccccc2c1)C(=O)NN,MTT,46 µg/mL
C=S(=C)(N)c1ccc(CN2CCC(Nc3nc(Nc4c(C)cc(C)cc4C)c4[nH]cnc4n3)CC2)cc1,MTT,23.89 µM
CC(C)=CCc1c([C@@H]2CCc3ccc(O)cc3O2)cc2c(c1O)OC(C)(C)C=C2,-,12 µg/mL
Cc1cn([C@H]2C[C@H](N=[N+]=[N-])[C@@H](CO)O2)c(=O)[nH]c1=O,MTT,>94 µM

The last 2 rows once more:

smiles,method,result
CC(C)=CCc1c([C@@H]2CCc3ccc(O)cc3O2)cc2c(c1O)OC(C)(C)C=C2,-,12 µg/mL
Cc1cn([C@H]2C[C@H](N=[N+]=[N-])[C@@H](CO)O2)c(=O)[nH]c1=O,MTT,>94 µM

Rows are shuffled and stem from different studies. Blank or dashed fields: not listed here.